Measurements from US20230014151A1, “COMBINATION ANTIVIRAL THERAPY FOR MEASLES” (The Trustees of Columbia University in the City of New York, priority 2019, published 2023).

Target: MeV F (S262R) (Measles virus, UniProt Q786F3, S262R)
Settings: 1 uM compound or peptide, 37° C., 60'

| SMILES | stage at which fusion is blocked (reversibly bound, irreversibly bound or fused RBCs) |
| --- | --- |
| CC(=O)N[C@H]1[C@H]([C@H](O)[C@H](O)CO)OC(C(=O)O)=C[C@@H]1N=C(N)N [Zanamivir, zanamivir, reference compound] | released all the RBC |
| CC[C@H](C)[C@H](NC(=O)[C@H](C)NC(=O)[C@H](CC(N)=O)NC(=O)CNC(=O)[C@H](CC(C)C)NC(=O)[C@H](CC(N)=O)NC(=O)[C@@H](NC(=O)CNC(=O)[C@@H](NC(=O)[C@H](CC(=O)O)NC(=O)[C@H](CC(C)C)NC(=O)[C@H](CCCNC(=N)N)NC(=O)[C@H](CCC(=O)O)NC(=O)[C@H](CC(C)C)NC(=O)[C@H](CO)NC(=O)[C@@H](NC(=O)[C@@H]1CCCN1C(=O)[C@@H]1CCCN1C(=O)CNC(=O)[C@H](CO)NC(=O)CNC(=O)[C@H](CO)NC(=O)CNC(=O)CNC(=O)[C@H](Cc1ccccc1)NC(=O)[C@@H](Cc1ccccc1)NC(=O)OCc1ccccc1)[C@@H](C)CC)C(C)C)[C@@H](C)O)C(=O)N[C@@H](C)C(=O)N[C@@H](CCCCN)C(=O)N[C@@H](CC(C)C)C(=O)N[C@@H](CCC(=O)O)C(=O)N[C@@H](CC(=O)O)C(=O)N[C@@H](C)C(=O)N[C@@H](CCCCN)C(=O)N[C@@H](CCC(=O)O)C(=O)N[C@@H](CC(C)C)C(=O)N[C@@H](CC(C)C)C(=O)N[C@@H](CCC(=O)O)C(=O)N[C@@H](CO)C(=O)N[C@@H](CO)C(=O)N[C@@H](CC(=O)O)C(=O)N[C@@H](CCC(N)=O)C(=O)N[C@H](C(=O)N[C@@H](CC(C)C)C(=O)N[C@@H](CCCNC(=N)N)C(=O)NCC(=O)N[C@@H](CO)C(=O)NCC(=O)N[C@@H](CO)C(=O)NCC(=O)N[C@@H](CSC1CC(=O)N(CCCC(=O)NCCOCCOCCOCCOCCC(=O)NCCN(CCNC(=O)CCOCCOCCOCCOCCNC(=O)CCCN2C(=O)CC(SC[C@H](NC(=O)CNC(=O)[C@H](CO)NC(=O)CNC(=O)[C@H](CO)NC(=O)CNC(=O)[C@H](CCCNC(=N)N)NC(=O)[C@H](CC(C)C)NC(=O)[C@@H](NC(=O)[C@H](CCC(N)=O)NC(=O)[C@H](CC(=O)O)NC(=O)[C@H](CO)NC(=O)[C@H](CO)NC(=O)[C@H](CCC(=O)O)NC(=O)[C@H](CC(C)C)NC(=O)[C@H](CC(C)C)NC(=O)[C@H](CCC(=O)O)NC(=O)[C@H](CCCCN)NC(=O)[C@H](C)NC(=O)[C@H](CC(=O)O)NC(=O)[C@H](CCC(=O)O)NC(=O)[C@H](CC(C)C)NC(=O)[C@H](CCCCN)NC(=O)[C@H](C)NC(=O)[C@@H](NC(=O)[C@H](C)NC(=O)[C@H](CC(N)=O)NC(=O)CNC(=O)[C@H](CC(C)C)NC(=O)[C@H](CC(N)=O)NC(=O)[C@@H](NC(=O)CNC(=O)[C@@H](NC(=O)[C@H](CC(=O)O)NC(=O)[C@H](CC(C)C)NC(=O)[C@H](CCCNC(=N)N)NC(=O)[C@H](CCC(=O)O)NC(=O)[C@H](CC(C)C)NC(=O)[C@H](CO)NC(=O)[C@@H](NC(=O)[C@@H]3CCCN3C(=O)[C@@H]3CCCN3C(=O)CNC(=O)[C@H](CO)NC(=O)CNC(=O)[C@H](CO)NC(=O)CNC(=O)CNC(=O)[C@H](Cc3ccccc3)NC(=O)[C@@H](Cc3ccccc3)NC(=O)OCc3ccccc3)[C@@H](C)CC)C(C)C)[C@@H](C)O)[C@@H](C)CC)[C@@H](C)CC)C(=O)O)C2=O)CCO[C@H]2CC[C@@]3(C)C(=CC[C@H]4[C@@H]5CC[C@H]([C@H](C)CCCC(C)C)[C@@]5(C)CC[C@@H]43)C2)C1=O)C(=O)O)[C@@H](C)CC (single isomer, unassigned) | blocks at the pre-fusion state |
